Compound potency records, mixed from different reports. Data source: NIAID ChemDB in PubChem.

Shared fields: growth or infection tests; species: Herpes simplex virus 1; cells: HEL; read by: cytopathic effect; read-out: EC50

ECn: concentration that inhibits the pathogen or its effect by n%. Rows are shuffled and stem from different studies. Blank or dashed fields: not listed here.

compound | strain | changes | result
CCOC(=O)Sc1nnc(-c2cn(-c3ccccc3)nc2-c2ccccc2)n1N | KOS | - | >16 µg/mL
CC(C)NS(=O)(=O)c1ccccc1C(=O)N/N=C/c1ccccc1 | KOS | - | >100 µM
S=c1[nH]n2c(-c3cn(-c4ccccc4)nc3-c3ccccc3)nnc2s1 | KOS | - | >80 µg/mL
O=c1[nH]c(=O)n([C@H]2C[C@H](O)[C@@H](CO)O2)cc1I | KOS | - | 0.1 µg/mL
CCCCCCCC#Cc1cn(S(=O)(=O)c2ccc(C)cc2)c(=O)[nH]c1=O | KOS | - | >200 µM
Nc1ccn(C[C@@H](CO)OCP(=O)(O)O)c(=O)n1 | HU-10 | - | 4.65 µM
CCCCCCCCCCC#Cc1cn(S(=O)(=O)c2ccc(C)cc2)c(=O)[nH]c1=O | KOS | - | >200 µM
CC(=O)NS(=O)(=O)c1cc(C)c(NC(=O)CN2C(=O)c3ccccc3S2(=O)=O)cc1C | KOS | - | >100 µM
Cc1cn([C@H]2C[C@H](O)[C@@H](CO)S2)c(=O)[nH]c1=O | - | - | 0.008 µg/mL
O=c1c2ncn(COC(CO)CO)c2nc2[nH]c(-c3ccc(C(F)(F)F)cc3)cn12 | KOS | - | 1.92 µg/mL
O=c1[nH]n2c(-c3cn(-c4ccccc4)nc3-c3ccccc3)nnc2sc1=O | KOS | - | >80 µg/mL
Cc1cn([C@H]2C=C[C@@H](OC(C(=O)O)P(=O)(O)O)C2)c(=O)[nH]c1=O | KOS | - | >250 µM
O=c1c2ncn(COCCO)c2nc2[nH]c(-c3ccc(F)cc3)cn12 | TK- | - | >16 µg/mL
O=c1[nH]c(=O)n([C@H]2C[C@H](O)[C@@H](CO)O2)cc1/C=C/Br | KOS | - | 0.015 µM
Nc1ccn(C[C@@H](CO)OCP(=O)(O)O)c(=O)n1 | KOS | TK-deficient acyclovir-resistant | 0.9 µM
Cc1cn([C@H]2CC[C@@H](OCC(=O)O)C2)c(=O)[nH]c1=O | KOS | - | >250 µM
O=c1[nH]n2c(-c3cn(-c4ccccc4)nc3-c3ccccc3)nnc2s1 | KOS | - | >16 µg/mL
O=c1c2ncn(COCCO)c2nc2[nH]c(-c3ccccc3)c(Cc3ccccc3)n12 | McIntyre | - | >16 µg/mL
CCCCCCCC#Cc1c[nH]c(=O)[nH]c1=O | KOS | - | >40 µM
CC(=O)c1ccc(NC(=O)CN2C(=O)c3ccccc3S2(=O)=O)cc1 | KOS | - | >100 µM
O=c1c2ncn(COC(CO)CO)c2nc2[nH]c(-c3ccc(F)cc3)cn12 | TK- | - | >80 µg/mL
Nc1nc2c(ncn2COC(CO)CO)c(=O)[nH]1 | HU-10 | - | >400 µM
Nc1ccn([C@@H]2O[C@H](CO)[C@@H](O)[C@@H]2O)c(=O)n1 | KOS | - | 0.01 µg/mL
CCCCCC#Cc1c[nH]c(=O)[nH]c1=O | KOS | - | >200 µM
COc1ccc(/C=N/NC(=O)c2ccccc2S(=O)(=O)NC(C)C)cc1 | KOS | - | >100 µM
Nc1ncnc2c1ncn2[C@@H]1O[C@H](CO)[C@@H](O)[C@@H]1O | KOS | - | 50 µg/mL
Nn1c(SCC(=O)O)nnc1-c1cn(-c2ccccc2)nc1-c1ccccc1 | KOS (TK-) | - | >80 µg/mL
C/C(=N/Nc1nc(-c2ccc(Cl)cc2)cs1)c1ccc(NC(=O)CN2C(=O)c3ccccc3S2(=O)=O)cc1 | KOS | TK-deficient acyclovir-resistant | >20 µM

3 of the rows above, restated:

compound	strain	changes	result
O=c1[nH]c(=O)n([C@H]2C[C@H](O)[C@@H](CO)O2)cc1/C=C/Br	KOS	-	0.015 µM
O=c1c2ncn(COC(CO)CO)c2nc2[nH]c(-c3ccc(F)cc3)cn12	TK-	-	>80 µg/mL
S=c1[nH]n2c(-c3cn(-c4ccccc4)nc3-c3ccccc3)nnc2s1	KOS	-	>80 µg/mL